Measured values from US6362166B1, “Antipicornaviral compounds and methods for their use and preparation” (Agouron Pharmaceuticals, Inc., priority 1996, dated 2002).

The compounds below were run on CVB-3 (assay: Anticoxsackieviral HI-HeLa Cell Culture Assay (XTT dye reduction)). Details: therapeutic index = CC50 divided by EC50; CVB-3, HI-HeLa.
Type: cell-based, Coxsackie strain B-3 (CVB-3)
Procedure: Specifically, HI-HeLa cells were infected wtih […] at a multiplicity of infection (m.o.i.) of 0.08 or mock-infected with medium only. Infected or mock-infected cells were resuspended at 8×10^5 cells per mL and incubated with appropriate concentrations of compound. One day later, XTT/PMS were added to test plates and the amount of formazan produced was quantified spectrophotometrically at 450/650 nm. […] The therapeutic index (TI) was calculated by dividing the CC50 by the EC50.
The Coxsackie strain B-3 (CVB-3) was purchased from American Type Culture Collection (ATCC). Virus stocks were propgated and antiviral assays were performed in Hi-HeLa cells (ATCC). Cells were grown in Minimal Essential Medium with 10% fetal bovine serum.
In the case of `CCOC(=O)/C=C/[C@H](CCC(N)=O)NC(=O)[C@H](Cc1ccccc1)NC(=O)[C@H](CC(C)C)NC(=O)OCc1ccccc1` [Compound 3, Ethyl-3-(CBZ-L-Leu-L-Phe-L-Gln)-E-Propenoate], the TI is reported as over 8.
Work on `CC(C)C[C@H](NC(=O)OCc1ccccc1)C(=O)N[C@@H](Cc1ccccc1)C(=O)N[C@H](/C=C/C(=O)N1CCCC1)CCC(N)=O` [Compound 21, 1-Pyrrolidin-1-yl-3-(CBZ-L-Leu-L-Phe-L-Gln)-E-Propenone] yielded a TI of over 2.
`COC(=O)/C=C/[C@H](CCC(N)=O)NC(=O)[C@H](Cc1ccccc1)NC(=O)[C@H](CC(C)C)NC(=O)OCc1ccccc1` [Compound 11, Methyl-3-(CBZ-L-Leu-L-Phe-L-Gln)-E-Propenoate] was tested, and the TI was over 35.
`CCOC(=O)/C=C/[C@H](CCC(N)=O)NC(=O)[C@H](Cc1ccc(F)cc1)NC(=O)c1cc2c(OC)cccc2[nH]1` [Compound 27] showed a TI of over 5.
With `CC(C)C[C@H](NC(=O)OCc1ccccc1)C(=O)N[C@@H](Cc1ccccc1)C(=O)N[C@H](/C=C/C(=O)c1ccccc1)CCC(N)=O` [Compound 24, 1-Phenyl-3-(CBZ-L-Leu-L-Phe-L-Gln)-E-Propenone] the TI was 1.
With `CON(C)C(=O)/C=C/[C@H](CCC(N)=O)NC(=O)[C@H](Cc1ccccc1)NC(=O)[C@H](CC(C)C)NC(=O)OCc1ccccc1` [Compound 37] the TI was over 5.6.

The compounds below were run on HRV-14 (assay: Antirhinoviral HI-HeLa Cell Culture Assay (Cell Protection Assay, XTT dye reduction)). Details: therapeutic index = CC50 divided by EC50; HRV-14, HI-HeLa.
Type: cell-based, human rhinovirus (HRV) serotype-14
Method in brief: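 HI-HeLa cells infected with HRV-14 at m.o.i. 0.13 or mock-infected, then incubated with compounds for two days. Cell protection read by XTT/PMS formazan at 450/650 nm; therapeutic index = CC50/EC50.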
`CCOC(=O)/C=C/[C@H](CCC(N)=O)NC(=O)[C@H](Cc1ccccc1)NC(=O)[C@H](CC(C)C)NC(=O)OCc1ccccc1` [Compound 3, Ethyl-3-(CBZ-L-Leu-L-Phe-L-Gln)-E-Propenoate] was tested, and the TI was over 525.
`CC(C)C[C@H](NC(=O)OCc1ccccc1)C(=O)N[C@@H](Cc1ccccc1)C(=O)N[C@H](/C=C/C(=O)N1CCCC1)CCC(N)=O` [Compound 21, 1-Pyrrolidin-1-yl-3-(CBZ-L-Leu-L-Phe-L-Gln)-E-Propenone] gave a TI of over 5.
In the case of `COC(=O)/C=C/[C@H](CCC(N)=O)NC(=O)[C@H](Cc1ccccc1)NC(=O)[C@H](CC(C)C)NC(=O)OCc1ccccc1` [Compound 11, Methyl-3-(CBZ-L-Leu-L-Phe-L-Gln)-E-Propenoate], the TI is reported as over 246.
Work on `CCOC(=O)/C=C/[C@H](CCC(N)=O)NC(=O)[C@H](Cc1ccc(F)cc1)NC(=O)[C@@H](NC(=O)SC1CCCC1)C(C)(C)C` [Compound 176, Ethyl-3-[Cyclopentylthiocarbonyl-L-α-(t-Butyl-Gly)-L-(4-F-Phe)-L-Gln]-E-Propenoate] yielded a TI of over 714.
Compound `CCOC(=O)/C=C/[C@H](CCC(N)=O)NC(=O)[C@H](CC)NC(=O)[C@H](CC(C)C)NC(=O)OCc1ccccc1` [Compound 108] has a TI of over 53.
For `CCOC(=O)C=CC(CCC(N)=O)NC(=O)C(Cc1ccc(C)cc1)NC(=O)C(CC(C)C)NC(=O)OCc1ccccc1` (stereo not drawn) [Compound 155], the TI was over 1778.
Compound `CC(C)C[C@H](NC(=O)OCc1ccccc1)C(=O)N[C@@H](Cc1ccccc1)C(=O)N[C@H](/C=C/C(=O)N1CCc2cc(F)ccc21)CCC(N)=O` [Compound 87] has a TI of over 30.
For `CCOC(=O)/C=C/[C@H](CCC(N)=O)NC(=O)[C@H](CSCC)NC(=O)[C@H](CC(C)C)NC(=O)OCc1ccccc1` [Compound 143], the TI was over 32.
`CC(C)C[C@H](NC(=O)OCc1ccccc1)C(=O)N[C@@H](Cc1ccccc1)C(=O)N[C@H](/C=C/C(=O)N1CCOC1=O)CCC(N)=O` [Compound 62] was tested, and the TI was over 63.
`CCOC(=O)/C=C/[C@H](CCC(N)=O)NC(=O)[C@H](Cc1ccc(F)cc1)NC(=O)c1cc2c(OC)cccc2[nH]1` [Compound 27] showed a TI of 46.
`CCOC(=O)/C=C/[C@H](CCC(N)=O)NC(=O)[C@H](Cc1ccccc1)NC(=O)[C@@H](NC(=O)OCc1ccccc1)C(C)C` [Compound 146] showed a TI of over 842.
In the case of `CCOC(=O)/C=C/C(CCC(N)=O)NC(=O)C(Cc1ccc(Cl)cc1)NC(=O)c1cc2c(OC)cccc2n1C(c1ccccc1)(c1ccccc1)c1ccccc1` [Compound 29, Ethyl-3-[N-(1-Tr-4-Methoxyindole-2-Carbonyl)-L-(4-Cl-Phe)-L-Gln]-E-Propenoate], the TI is reported as 19.
In the case of `CC(C)C[C@H](NC(=O)OCc1ccccc1)C(=O)N[C@@H](Cc1ccccc1)C(=O)N[C@H](/C=C/C(=O)N1CCc2cc(S(=O)(=O)N(C)C)ccc21)CCC(N)=O` [Compound 88], the TI is reported as over 18.
Work on `CC(C)C[C@H](NC(=O)OCc1ccccc1)C(=O)N[C@@H](Cc1ccccc1)C(=O)N[C@H](/C=C/C(=O)OCC1CCCC1)CCC(N)=O` [Compound 19, Cyclopentylmethyl-3-(CBZ-L-Leu-L-Phe-L-Gln)-E-Propenoate] yielded a TI of over 74.
`CCOC(=O)/C=C/[C@H](CNC(N)=O)NC(=O)[C@H](Cc1ccccc1)NC(=O)[C@H](CC(C)C)NC(=O)OCc1ccccc1` [Compound 16, Ethyl-3-[CBZ-L-Leu-L-Phe-L-(N-carbamyl-amino)-Ala]-E-Propenoate] showed a TI of over 3.
Compound `CCOC(=O)/C=C/[C@H](CCC(N)=O)NC(=O)[C@H](Cc1ccccc1)NC(=O)[C@H](CC(C)C)NC(=O)C(C)C` [Compound 117] has a TI of over 320.
Compound `CON=C/C=C/[C@H](CCC(N)=O)NC(=O)[C@H](Cc1ccccc1)NC(=O)[C@H](CC(C)C)NC(=O)OCc1ccccc1` [Compound 83] has a TI of over 3.
Compound `CC(C)C[C@H](NC(=O)OCc1ccccc1)C(=O)N[C@@H](Cc1ccccc1)C(=O)N[C@H](/C=C/C(=O)N1CCc2cccc(Cl)c21)CCC(N)=O` [Compound 91] has a TI of over 6.
In the case of `CCOC(=O)/C=C/[C@H](CCC(N)=O)NC(=O)[C@H](Cc1ccc(Cl)cc1)NC(=O)c1cc2c(OC)cccc2[nH]1` [Compound 26, Ethyl-3-[N-(4-Methoxyindole-2-Carbonyl)-L-(4-Cl-Phe)-L-Gln]-E-Propenoate], the TI is reported as 22.
Work on `CCOC(=O)/C=C/[C@H](CCC(N)=O)NC(=O)[C@H](Cc1ccccc1)NC(=O)[C@@H](NC(=O)SCC)C(C)C` [Compound 180] yielded a TI of over 1785.
With `CCOC(=O)/C=C/[C@H](CCC(N)=O)NC(=O)[C@H](Cc1ccccc1)NC(=O)[C@@H](NC(=O)OCc1ccccc1)C(C)O` (stereo partly drawn) [Compound 152] the TI was over 180.
Work on `CCOC(=O)/C=C/[C@H](CCC(N)=O)NC(=O)[C@H](Cc1ccc(CCO)cc1)NC(=O)[C@H](CC(C)C)NC(=O)OCc1ccccc1` [Compound 139] yielded a TI of over 91.
Work on `CC(C)C[C@H](NC(=O)OCc1ccccc1)C(=O)N[C@@H](Cc1ccccc1)C(=O)N[C@H](/C=C/C(=O)C(C)(C)C)CCC(N)=O` [Compound 52] yielded a TI of 3.
Work on `COC(=O)/C=C\[C@H](CCC(N)=O)NC(=O)[C@H](Cc1ccccc1)NC(=O)[C@H](CC(C)C)NC(=O)OCc1ccccc1` [Compound 7, Methyl-3-(CBZ-L-Leu-L-Phe-L-Gln)-Z-Propenoate] yielded a TI of over 100.
Work on `CC(C)C[C@H](NC(=O)OCc1ccccc1)C(=O)N[C@@H](Cc1ccccc1)C(=O)N[C@H](/C=C/C(=O)OCC(C)(C)C)CCC(N)=O` [Compound 163] yielded a TI of over 200.
In the case of `CC(=O)N1CC/C(=C\[C@H](CCC(N)=O)NC(=O)[C@H](Cc2ccc(F)cc2)NC(=O)[C@H](CSc2ccccc2)NC(=O)SC2CCCC2)C1=O` [Compound 181], the TI is reported as over 1000.
In the case of `CC(C)C[C@H](NC(=O)OCc1ccccc1)C(=O)N[C@@H](Cc1ccccc1)C(=O)N[C@H](/C=C/C(=O)N(C)c1ccccc1)CCC(N)=O` [Compound 60], the TI is reported as over 2.
`Cc1cc(CCCCCCCOc2ccc(C3=NCCO3)cc2)on1` [WIN 51711, reference compound] was tested, and the TI was over 77.
`CCOC(=O)/C=C/[C@H](CCC(N)=O)NC(=O)[C@H](Cc1ccccc1)NC(=O)CNC(=O)OCc1ccccc1` [Compound 102] gave a TI of over 57.
Work on `CC(C)C[C@H](NC(=O)OCc1ccccc1)C(=O)N[C@@H](Cc1ccccc1)C(=O)N[C@H](/C=C/C(=O)c1ccccc1)CCC(N)=O` [Compound 24, 1-Phenyl-3-(CBZ-L-Leu-L-Phe-L-Gln)-E-Propenone] yielded a TI of 4.
`CCOC(=O)/C=C/[C@H](CCC(N)=O)NC(=O)[C@H](Cc1ccccc1)NC(=O)[C@H](CC(C)C)NC(=O)OC` [Compound 110] showed a TI of over 246.
For `CCOC(=O)C=CC(CCC(N)=O)NC(=O)C(Cc1ccccc1)NC(=O)C(NC(=O)OCc1ccccc1)c1ccccc1` (stereo not drawn) [Compound 71], the TI was 23.
For `CCOC(=O)/C=C/[C@H](CCC(N)=O)NC(=O)[C@H](Cc1ccccc1)NC(=O)[C@H](CSc1ccccc1)NC(=O)SC1CCCC1` [Compound 173, Ethyl-3-[Cyclopentylthiocarbonyl-L-(S-Ph-Cys)-L-Phe-L-Gln]-E-Propenoate], the TI was over 1250.
Work on `CCOC(=O)/C=C/[C@H](CCC(N)=O)NC(=O)[C@H](Cc1ccccc1)NC(=O)[C@H](Cc1ccccc1)NC(=O)OCc1ccccc1` [Compound 157] yielded a TI of over 571.
Compound `CCOC(=O)/C=C/[C@H](CCC(N)=O)NC(=O)[C@H](Cc1ccccc1)NS(=O)(=O)CC` [Compound 33, Ethyl-3-[N-(Ethylsulfonyl)-L-Phe-L-Gln]-E-Propenoate] has a TI of over 1.
`CCOC(=O)/C=C/[C@H](CCC(N)=O)NC(=O)[C@H](Cc1ccccc1)NC(=O)[C@H](CC(C)C)NC(=O)SC(C)C` [Compound 170] showed a TI of over 500.
Compound `CON(C)C(=O)/C=C/[C@H](CCC(N)=O)NC(=O)[C@H](Cc1ccccc1)NC(=O)[C@H](CC(C)C)NC(=O)OCc1ccccc1` [Compound 37] has a TI of over 25.
Work on `CCOC(=O)/C=C/[C@H](CCC(N)=O)NC(=O)[C@H](Cc1ccccc1)NC(=O)[C@H](CC(C)C)NC(=O)CCO` [Compound 115] yielded a TI of over 17.
For `CCOC(=O)/C=C/[C@H](CCC(N)=O)NC(=O)[C@H](Cc1ccccc1)NC(=O)[C@H](C[S+]([O-])Cc1ccccc1)NC(=O)OCc1ccccc1` (stereo partly drawn) [Compound 166], the TI was over 18.
For `CCOC(=O)/C=C/[C@H](CCC(N)=O)NC(=O)[C@H](Cc1ccccc1)NC(=O)[C@H](CC(C)C)NC(=O)SC1CCCC1` [Compound 182], the TI was over 556.
Work on `CCOC(=O)/C=C/[C@H](CCC(N)=O)NC(=O)[C@H](Cc1ccccc1)NC(=O)[C@H](Cc1ccccc1)NC(=O)SCc1ccccc1` [Compound 161] yielded a TI of over 588.
Work on `CCOC(=O)/C=C/[C@H](CCC(N)=O)NC(=O)[C@H](Cc1ccccc1)NC(=O)[C@H](CO)NC(=O)OCc1ccccc1` [Compound 149] yielded a TI of over 180.
